Measured values from several laboratories, pooled; numbers as filed in NIAID ChemDB.

Shared fields: whole-cell or culture tests; species: Mycobacterium kansasii; endpoint: MIC

Conditions beyond the fields shown may differ between rows.

{"smiles": "Cc1ccc2oc(=S)n(-c3cccc(F)c3)c(=S)c2c1", "strain": "My 235/80", "setting": "14 d", "value": "16 µM"}
{"smiles": "C[C@@H](NC(=O)OCc1ccccc1)c1cnc(-c2ccc([N+](=O)[O-])cc2)[nH]1", "strain": "My 235/80", "setting": "21 d", "value": ">125 µM"}
{"smiles": "N/C(=N\\N=C\\c1ccccc1O)SCc1cccc(Cl)c1", "strain": "6509/96", "setting": "14 d", "read by": "broth dilution", "value": "16 µM"}
{"smiles": "O=C(Oc1cc(Cl)ccc1C(=O)Nc1ccc(C(F)(F)F)cc1)c1cnccn1", "strain": "6509/96", "setting": "7 d", "value": "1 µM"}
{"smiles": "N/C(=N\\N=C\\c1cc(Cl)ccc1O)SCc1ccc(F)cc1", "strain": "6509/96", "setting": "21 d", "read by": "broth dilution", "value": "32 µM"}
{"smiles": "O=C(Nc1ccc(F)cc1)c1ccc(Cl)cc1OS(=O)(=O)c1ccccc1", "strain": "235/80", "setting": "7 d", "value": "16 µM"}
{"smiles": "CC(C)[C@H](NC(=O)OCc1ccccc1)c1cnc(-c2ccccc2)[nH]1", "strain": "My 6509/96", "setting": "7 d", "value": "32 µM"}
{"smiles": "O=C(Nc1cccc(F)c1)c1ccc(Cl)cc1OS(=O)(=O)c1ccccc1", "strain": "235/80", "setting": "21 d", "value": "32 µM"}
{"smiles": "O=C(Oc1ccc(Cl)cc1C(=O)Nc1cccc(F)c1)c1cnccn1", "strain": "6509/96", "setting": "7 d", "value": "4 µM"}
{"smiles": "O=C(Nc1ccc(Cl)cc1)c1ccc(Cl)cc1OS(=O)(=O)c1ccccc1", "strain": "235/80", "setting": "21 d", "value": "16 µM"}
{"smiles": "O=C(Oc1cc(Cl)ccc1C(=O)Nc1ccc(Cl)cc1)c1cnccn1", "strain": "6509/96", "setting": "7 d", "value": "2 µM"}
{"smiles": "COc1ccc2oc(=O)n(-c3ccc(Cl)cc3)c(=S)c2c1", "strain": "6509/96", "setting": "21 d", "value": "16 µM"}
{"smiles": "O=C(Nc1ccc(C(F)(F)F)cc1)c1ccc(Cl)cc1OS(=O)(=O)c1ccccc1", "strain": "6509/96", "setting": "21 d", "value": "4 µM"}
{"smiles": "CC[C@@H](C)[C@H](NC(=O)OCc1ccccc1)c1cnc(-c2ccc([N+](=O)[O-])cc2)[nH]1", "strain": "My 6509/96", "setting": "21 d", "value": "32 µM"}
{"smiles": "O=c1oc2ccc(Br)cc2c(=S)n1-c1ccc(Cl)cc1", "strain": "6509/96", "setting": "21 d", "value": "4 µM"}
{"smiles": "O=C(OCc1ccccc1)N1CCC[C@H]1c1cnc(-c2ccc([N+](=O)[O-])cc2)[nH]1", "strain": "My 235/80", "setting": "21 d", "value": "250 µM"}
{"smiles": "O=C(Nc1ccc(Br)cc1)c1cc(Cl)ccc1OS(=O)(=O)c1ccccc1", "strain": "235/80", "setting": "21 d", "value": "8 µM"}
{"smiles": "COc1cccc(CS/C(N)=N/N=C/c2cc(Cl)ccc2O)c1", "strain": "6509/96", "setting": "21 d", "read by": "broth dilution", "value": "62.5 µM"}
{"smiles": "O=c1oc2ccc(F)cc2c(=S)n1-c1ccc(C(F)(F)F)cc1", "strain": "My 235/80", "setting": "21 d", "value": "8 µM"}
{"smiles": "O=C(Oc1ccc(Cl)cc1)c1cnccn1", "strain": "235/80", "setting": "21 d", "value": "500 µM"}
{"smiles": "C[C@@H](NC(=O)OCc1ccccc1)c1cnc(-c2ccccc2)[nH]1", "strain": "My 235/80", "setting": "7 d", "value": "125 µM"}
{"smiles": "COc1ccc2oc(=O)n(-c3ccc(Br)cc3)c(=S)c2c1", "strain": "6509/96", "setting": "14 d", "value": "32 µM"}
{"smiles": "O=C(N[C@@H](Cc1ccccc1)c1cnc(-c2ccc([N+](=O)[O-])cc2)[nH]1)OCc1ccccc1", "strain": "My 6509/96", "setting": "14 d", "value": "16 µM"}
{"smiles": "COc1ccc2oc(=O)n(-c3ccccc3)c(=S)c2c1", "strain": "My 235/80", "setting": "14 d", "value": "16 µM"}
{"smiles": "N/C(=N\\N=C\\c1cc(Br)ccc1O)SCc1ccc(C(F)(F)F)cc1", "strain": "ATCC 12478", "setting": "14 d", "read by": "broth dilution", "value": "62.5 µM"}
{"smiles": "Cc1ccc2oc(=O)n(-c3cccc(F)c3)c(=S)c2c1", "strain": "6509/96", "setting": "14 d", "value": "16 µM"}
{"smiles": "COC(=O)c1cnccn1", "strain": "235/80", "setting": "7 d", "value": ">500 µM"}

The last 2 rows once more:

Cc1ccc2oc(=O)n(-c3cccc(F)c3)c(=S)c2c1 ; strain: 6509/96 ; setting: 14 d ; value: 16 µM
COC(=O)c1cnccn1 ; strain: 235/80 ; setting: 7 d ; value: >500 µM